Only a part is listed here, and it is no random draw. Activity calls are given as the source filed them. Calls follow the shape of the dose curve; as a rule, active = well fitted inhibition curve with a large enough effect; inconclusive = small, poorly fitted or top-dose-only effect; inactive = flat fitted curve, though single readings scatter.

Protein sequences, listed by entry. Tags and fused reporters are not part of them. Residues count along the entry.
UniProt P25779, 123-467 limits assumed: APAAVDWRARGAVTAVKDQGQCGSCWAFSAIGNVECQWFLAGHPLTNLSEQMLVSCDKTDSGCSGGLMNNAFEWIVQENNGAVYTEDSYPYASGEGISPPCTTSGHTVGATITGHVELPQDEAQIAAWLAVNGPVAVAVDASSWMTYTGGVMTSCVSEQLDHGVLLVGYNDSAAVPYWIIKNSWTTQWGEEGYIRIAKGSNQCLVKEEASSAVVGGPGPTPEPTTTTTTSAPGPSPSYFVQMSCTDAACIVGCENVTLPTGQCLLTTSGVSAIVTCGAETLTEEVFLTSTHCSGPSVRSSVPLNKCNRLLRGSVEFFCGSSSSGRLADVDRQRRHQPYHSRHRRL

The experiment addresses Cruzipain (Trypanosoma cruzi) (UniProt P25779). As to the kind of experiment: qHTS Assay for Promiscuous and Specific Inhibitors of Cruzain (with detergent). Also: nearly all actives have a fitted effect of over 40% in size. The following applies: purified cruzain, Z-FR-AMC fluorescence, 0.01% Triton. The procedure:
Cruzain (3.4.22.51) is a cysteine protease from the tropical parasite Trypanosoma cruzi. Dual qHTS experiment was performed against the NCGC compound collection in order to 1) identify novel inhibitors of the enzyme and 2) profile the compound collection for promiscuous inhibitors operating via colloidal aggregation (by performing detergent-free and detergent-containing comparison screens). Cruzain was assayed by the use of fluorogenic coumarin-based substrate Z-FR-AMC: proteolytic cleavage releases AMC, whose fluorescence is measured at 360 nm excitation and 450 nm emission. Purified cruzain was supplied by the labs of Prof. James McKerrow and Brian Shoichet, UC San Francisco.
This assay had 0.01% Triton X-100 concentration. See also releated assay "qHTS Assay for Promiscuous and Specific Inhibitors of Cruzain (without detergent)" with 0.00005% Triton X-100.
See following references for additional details:
Assay Provider: Shoichet, Brian; University of California, San Fancisco
Screening Center PI: Austin, C.P.
Screening Center: NIH Chemical Genomics Center [NCGC]
Buffer: 100 mM Sodium Acetate, pH 5.5, 5 mM DTT, Triton X-100 concentration: 0.01%.
Buffer in columns 3 and 4 as negative control (no enzyme).
Substrate solution: 2 uM final concentration of Z-FR-AMC (catalog number I-1160, Bachem) dispensed throughout the plate.
Enzyme: 1.5 nM Cruzain final concentration in columns 1, 2, 5-48. Column 1 is neutral (100% activity). Column 2 contained titration of covalent inhibitor K11777, starting concentration 1 mM, then 1:2 dilution in duplicate).
Three uL of enzyme or buffer were dispensed to 1536-well Greiner black solid bottom plates. Compounds and controls (23 nL) were transferred via Kalypsys PinTool. The plates were incubated for 15 min at room temperature, and then 1 uL of substrate solution was added to start the reaction. The plates were immediately transferred to and read 4 times every 30 seconds for 2 min on ViewLux High-throughput CCD imager (Perkin-Elmer) using 360 nm excitation and 450 nm emission fluorescence protocol. The fluorescence intensity difference between the third and the first time points (time lapse of 60 seconds) was used to compute reaction progress.
(In qHTS, concentration-response curves come from the screen itself.)
Turning to `CN1CCN(CCOC(=O)C(O)(c2ccccc2)c2ccccc2)CC1`, the max response, negative = inhibition is inactive: -1.98%. For `O=C(NCC1(N2CCOCC2)CCCCC1)c1cc(=O)[nH]c2ccccc12` the value was inactive: 5.24%; for `CCCOc1cccc(C(=O)NCC2(N3CCOCC3)CCCCC2)c1`, inactive: 1.67%; for `CCOc1ccc(C(=O)NCC2(N3CCOCC3)CCCCC2)cc1`, inactive: 0.0962%. For `N#CC1(Nc2ccccc2)CCN(CCc2ccccc2)CC1` the value was inactive: 3.37%; for `CCCCOc1ccccc1C(=O)NCC1(N2CCOCC2)CCCCC1`, inactive: -3.17%. With `O=C(NCC1(N2CCOCC2)CCCCC1)c1ccccc1Br` the figure was inactive: -0.811%; with `NC1CCCCC1.NP(=O)(O)N(CCCl)CCCl`, inactive: 1.91%; with `CCOP(=O)(Cl)Cl`, inactive: -0.988%. With `O=C(OC1CN2CCC1CC2)C1c2ccccc2Oc2ccccc21` (stereo not given), the max response, negative = inhibition is inactive: -2%.

For `O=C(NCC1(N2CCOCC2)CCCCC1)c1cc2ccccc2o1`, the max response, negative = inhibition is inactive: -1.24%. For `COc1ccc(NC2CCN(CCc3ccccc3)CC2)c(OC)c1` the value was inactive: 1.15%; for `COc1ccccc1C(=O)NCC1(N2CCOCC2)CCCCC1`, inactive: -0.42%; for `O=C(NCC1(N2CCOCC2)CCCCC1)c1ccc(Cl)cc1`, inactive: 20.5%.

As for `CC(C)(C)c1ccc(C(=O)NCC2(N3CCOCC3)CCCCC2)cc1`, the max response, negative = inhibition is inactive: 7.3%. In the case of `Cc1ccccc1C(=O)NCC1(N(C)C)CCCCC1`, the max response, negative = inhibition was inactive: -1.06%. On to `CCN1CCC(Nc2cccc(F)c2)CC1`, for which the max response, negative = inhibition was inactive: 1.8%.

As to `Fc1ccccc1NC1CCN(Cc2ccccc2)CC1`, the max response, negative = inhibition is inactive: 2.47%. For `CN(C)C1(CNC(=O)c2ccc(C(C)(C)C)cc2)CCCCC1` the value was inactive: 0.849%. Turning to `CCC(CO)(C(=O)OC1CN2CCC1CC2)c1ccccc1` (stereo not given), the max response, negative = inhibition was inactive: 0.151%.

With `COc1cc(C(=O)NCC2(N3CCOCC3)CCCCC2)cc(OC)c1OC`, the max response, negative = inhibition was inactive: -0.17%. With `O=C(O)C1(Nc2ccccc2)CCN(Cc2ccccc2)CC1` the figure was inactive: 7.01%. Take `CCOc1ncccc1C(=O)NCC1(N2CCOCC2)CCCCC1`: the max response, negative = inhibition was inactive: -0.532%. Consider `O=C(OC1CN2CCC1CC2)C1c2ccccc2C=Cc2ccccc21` (stereo not given), for which the max response, negative = inhibition was inactive: 1.32%.

Consider `N/C(=N\O)c1c(N)no[n+]1[O-]`, for which the max response, negative = inhibition was inactive: 1.46%. Regarding `c1ccc(CN2CCC(Nc3ccccc3)CC2)cc1`, the max response, negative = inhibition is inactive: 5.46%. With `O=C(NCC1(N2CCOCC2)CCCCC1)c1ccccc1` the figure was inactive: 1.08%; with `ClCCOP(OCCCl)OCCCl`, inactive: -0.963%; with `O=C(NCC1(N2CCOCC2)CCCCC1)c1ccc([N+](=O)[O-])cc1`, inactive: 10.2%. Turning to `O=C(NCC1(N2CCOCC2)CCCCC1)c1ccccc1[N+](=O)[O-]`, the max response, negative = inhibition is inactive: -2.53%.

The record behind these values is PubChem BioAssay AID1478 (National Center for Advancing Translational Sciences (NCATS), 2009).
